We go through one substance from patent US20120121591A1, “SELECTIVE AND POTENT PEPTIDE INHIBITORS OF Kv1.3” (priority 2009, published 2012).

One experiment deals with human Kv1.3 (human) (UniProt P22001). The experiment in a line: cell-based or functional assay.
Another experiment deals with human Kv1.1 (human) (UniProt Q09470). Kind of experiment: cell-based or functional assay.

Consider “Monovalent ShK(1-35 Q16K)-Fc/Fc heterodimer (Fc fusion)”, for which, in the experiment with human Kv1.3 (human), the Kv1.3 (PX) IC50 was 1.45 nM, the WB (IFNg) IC50 is 0.12 nM and the WB (IL-2) IC50 amounted to 0.11 nM. The substance also yielded a Kv1.1 (PX) IC50 with human Kv1.1 (human) of 14.8 nM.
